Pooled drug test results. Numbers come from NIAID ChemDB, via PubChem.

All rows: tests on isolated targets

Blank or dashed fields: not listed here. ICn: concentration for n% inhibition. Rows are shuffled and stem from different studies. Inhibition is in % at the dose shown (toxicity tests: loss of growth or viability).

compound	strain	protein	endpoint	method	organism	dose	value
NNC(=O)c1ccncc1		DNA gyrase	IC50	gel	Mycobacterium tuberculosis		>100 µM
O=c1[nH]c(=O)n([C@H]2C[C@H](O)[C@@H](CO)O2)cc1C(F)(F)F		Thymidine monophosphate kinase	IC50		Mycobacterium tuberculosis		97 µM
Cc1cn([C@@H]2O[C@H](COP(=O)([O-])[O-])[C@@H](O)[C@H]2Cl)c(=O)[nH]c1=O		Thymidine monophosphate kinase	Ki		Mycobacterium tuberculosis		43.05 µM
CC1CCc2cc(F)cc3c(=O)c(C(=O)O)cn1c23	H37Rv	DNA gyrase	IC50	gel	Mycobacterium tuberculosis		500 µg/mL
Cc1cn([C@@H]2O[C@H](CO)[C@@H](N=[N+]=[N-])[C@H]2Cl)c(=O)[nH]c1=O		Thymidylate kinase	Ki		Mycobacterium tuberculosis		170 µM
CCCCCCCCCCCC1=CC(=O)C(OC)=C(OC)C1=O		NADH dehydrogenase	inhibition		Mycobacterium tuberculosis	40 µM	76%
COC(=O)c1sc(-c2ccccc2)nc1OCc1cnnn1-c1cc2ccc(N)cc2oc1=O		DNA gyrase	IC50	gel / absorbance	Mycobacterium tuberculosis		0.63 µM
CC1CCCCC1NC(=O)CN(C)S(=O)(=O)c1cccc2cccnc12	H37Rv	Lipoamide dehydrogenase	inhibition	absorbance	Mycobacterium tuberculosis	100 µM	10%
COc1cc(/C=C2\SC(=S)N(CCC(=O)NNC(=O)c3ccncc3)C2=O)cc(OC)c1OC		Pantothenate synthetase	IC50	absorbance	Mycobacterium tuberculosis		0.35 µM
CCOC(=O)c1cnn(C)c1S(=O)(=O)NC(=O)Nc1nc(OC)cc(OC)n1		Acetohydroxyacid synthase	Ki		Mycobacterium tuberculosis		7.1 µM
Cc1cc(N)c2ccccc2[n+]1CCCCCCCCCC[n+]1c(C)cc(N)c2ccccc21		Mycolate synthetase	IC50	HPLC	Mycobacterium tuberculosis		24 µM
CCCC[C@H](CN(O)C=O)C(=O)N1CCCC1C(=O)Nc1ccccn1		Peptide deformylase	IC50		Mycobacterium tuberculosis		69.5 µM
O=c1ccn([C@@H]2O[C@H](CO/N=C/c3cc([N+](=O)[O-])cc([N+](=O)[O-])c3O)[C@@H](O)[C@H]2O)c(=O)[nH]1		UDP-galactopyranose mutase	IC50		Mycobacterium tuberculosis		>100 µM
CCOc1ccc2cc(-n3nncc3COc3nc(-c4ccncc4)sc3C(=O)OC)c(=O)oc2c1		DNA gyrase	IC50	gel / absorbance	Mycobacterium tuberculosis		8.3 µM
O=c1[nH]c(=O)n([C@H]2C[C@H](O)[C@@H](CO)O2)cc1I		Thymidine monophosphate kinase	Ki		Mycobacterium tuberculosis		33.04 µM
CCCCN(C)C(=O)CCNS(=O)(=O)c1cc(Br)cnc1N	H37Rv	Lipoamide dehydrogenase	inhibition	absorbance	Mycobacterium tuberculosis	100 µM	18%
COc1cc(C[C@@H](C)[C@@H](C)Cc2ccc(O)c(OC)c2)ccc1O	Rv1284	Rv1284	Ki		Mycobacterium tuberculosis		9.1 µM
NC1CCN(c2nc3c(cc2F)c(=O)c(C(=O)O)cn3-c2ccc(F)cc2F)C1	H37Rv	DNA gyrase	IC50	gel	Mycobacterium tuberculosis		37 µg/mL
O=c1[nH]c(=O)n([C@H]2C[C@H](O)[C@@H](CO)O2)cc1CO		Thymidine monophosphate kinase	IC50		Mycobacterium tuberculosis		820 µM
COc1nc(C)nc(NC(=O)NS(=O)(=O)c2ccccc2Cl)n1		Acetohydroxyacid synthase	Ki		Mycobacterium avium		215 µM
C[N+](C)(C)CCCN1c2ccccc2Sc2c1ccc1ccccc21		NADH dehydrogenase	IC50		Mycobacterium tuberculosis		13 µM
Cc1ccc2ccccc2[n+]1C		Mycolate synthetase	IC50	HPLC	Mycobacterium tuberculosis		1400 µM
[N-]=[N+]=N[C@H]1C[C@H](n2cc(Cl)c(=O)[nH]c2=O)O[C@@H]1CO		Thymidine monophosphate kinase	IC50		Mycobacterium tuberculosis		16 µM
COC(=O)c1ccccc1S(=O)(=O)NC(=O)Nc1nc(C)cc(C)n1		Acetohydroxyacid synthase	Ki		Mycobacterium avium		13.5 µM
COC1=C(Br)CC2(OC=C1Br)ON=C(C(=O)NCCCOc1c(Br)cc(CCN)cc1Br)[C@@H]2O		MYCOTHIOL-S-CONJUGATE AMIDASE	IC50		Mycobacterium tuberculosis		30 µM
COC(=O)c1sc(-c2ccncc2)nc1OCc1cnnn1-c1cc2ccc(O)cc2oc1=O		DNA gyrase	IC50	gel / absorbance	Mycobacterium tuberculosis		11.4 µM
CO[C@@H]1[C@@H](OCc2ccccc2)[C@@H](OCc2ccccc2)[C@H](O[C@@H]2[C@H](OC(C)=O)[C@@H](COC(C)=O)OC(O)[C@@H]2NC(C)=O)O[C@H]1C		Galactosyltransferase	IC50		Mycobacterium tuberculosis		370 µg/mL
O=c1ccc2ncccc2n1CCN1CCC(NCc2cc(Cl)c(Cl)cn2)CC1		DNA gyrase	IC50	gel	Mycobacterium tuberculosis		10.98 µM
Nc1ccc2cc(-n3nncc3COc3nc(-c4ccccc4)sc3C(=O)O)c(=O)oc2c1		DNA gyrase	IC50	gel / absorbance	Mycobacterium tuberculosis		0.71 µM
CCN(CC)CCCC(C)Nc1ccnc2cc(Cl)ccc12		DNA gyrase	IC50	gel	Mycobacterium tuberculosis		>100 µM
O=c1[nH]c(=O)n([C@H]2C[C@H](O)[C@@H](CO)O2)cc1CO		Thymidine monophosphate kinase	Ki		Mycobacterium tuberculosis		820 µM
COC1=C(Br)[C@@H](O)[C@]2(C=C1Br)CC(C(=O)NCCc1[nH]c(N)nc1-c1cc(O)c3[nH]cc(O)c(=O)c3c1O)=NO2		MYCOTHIOL-S-CONJUGATE AMIDASE	IC50		Mycobacterium tuberculosis		3 µM
CCOc1ccc2cc(-n3nncc3COc3nc(-c4ccccn4)sc3C(=O)O)c(=O)oc2c1		DNA gyrase	IC50	gel / absorbance	Mycobacterium tuberculosis		11.2 µM
Cc1cn([C@@H]2O[C@H](CO)[C@@H](N)[C@H]2Cl)c(=O)[nH]c1=O		Thymidylate kinase	Ki		Mycobacterium tuberculosis		145 µM
O=c1ccn([C@H]2C[C@H](O)[C@@H](CO)O2)c(=O)[nH]1		Thymidine monophosphate kinase	IC50		Mycobacterium tuberculosis		1020 µM
CC1CN(c2cc3c(cc2F)c(=O)c(C(=O)O)cn3-c2ccc(F)cc2F)CCN1	H37Rv	DNA gyrase	IC50	gel	Mycobacterium tuberculosis		40 µg/mL
COc1cnc2ccc(=O)n(CCN3CCC(NCc4cc(Cl)c(Cl)cn4)CC3)c2c1		DNA gyrase	IC50	gel	Mycobacterium tuberculosis		5.4 µM
COC(=O)c1ccccc1S(=O)(=O)NC(=O)Nc1nc(C)nc(C)n1		Acetohydroxyacid synthase	Ki		Mycobacterium avium		39 µM
O=C(N[C@H]1[C@@H](OC2C[C@H](CO)[C@@H](O)[C@@H](O)[C@H]2O)O[C@H](CO)[C@@H](O)[C@@H]1O)c1ccc2sccc2c1		MYCOTHIOL-S-CONJUGATE AMIDASE	inhibition		Mycobacterium tuberculosis	50 µM	<10%
O=c1[nH]c(=O)n([C@H]2C[C@H](O)[C@@H](CO)O2)cc1/C=C/Br		Thymidine monophosphate kinase	IC50		Mycobacterium tuberculosis		625 µM
COC(=O)c1sc(-c2cccnc2)nc1OCc1cnnn1-c1cc2ccc(N)cc2oc1=O		DNA gyrase	IC50	gel / absorbance	Mycobacterium tuberculosis		8.5 µM
[N-]=[N+]=N[C@H]1C[C@H](n2cc(Br)c(=O)[nH]c2=O)O[C@@H]1CO		Thymidine monophosphate kinase	IC50		Mycobacterium tuberculosis		10.5 µM
[N-]=[N+]=N[C@H]1C[C@H](n2cc(Cl)c(=O)[nH]c2=O)O[C@@H]1CO		Thymidine monophosphate kinase	Ki		Mycobacterium tuberculosis		16.03 µM
COc1ccc2nc3cc(Cl)ccc3c(Nc3cc(CN4CCCC4)c(O)c(CN4CCCC4)c3)c2n1		DNA gyrase	IC50	gel	Mycobacterium tuberculosis		25 µM
COC(=O)c1ccccc1S(=O)(=O)NC(=O)Nc1nc(OC(F)F)cc(OC(F)F)n1		Acetohydroxyacid synthase	Ki		Mycobacterium tuberculosis		30.7 µM
N=C(N)CCCCNC(=O)/C(Cc1cc(Br)c(OCCCN)c(Br)c1)=N/O		MYCOTHIOL-S-CONJUGATE AMIDASE	IC50		Mycobacterium tuberculosis		3 µM
CC(C)=CCC/C(C)=C/CC/C(C)=C/CC/C(C)=C/CCC1=CC(=O)c2ccccc2C1=O		NADH dehydrogenase	inhibition		Mycobacterium tuberculosis	40 µM	90%
Cc1cn([C@H]2C[C@H](N=[N+]=[N-])[C@@H](COP(=O)([O-])[O-])O2)c(=O)[nH]c1=O		Thymidine monophosphate kinase	Ki		Mycobacterium tuberculosis		28.05 µM
NNC(=O)c1ccncc1		Pantothenate synthetase	IC50	absorbance	Mycobacterium tuberculosis		>25 µM
CN1CCN(S(=O)(=O)c2cc(Br)cnc2N)CC1	H37Rv	Lipoamide dehydrogenase	inhibition	absorbance	Mycobacterium tuberculosis	100 µM	10%
O=C(CCN1C(=O)/C(=C/c2ccc(OCc3ccccc3)cc2)SC1=S)NNC(=O)c1cccnc1		Pantothenate synthetase	IC50	absorbance	Mycobacterium tuberculosis		0.51 µM
Nc1ncc(Br)cc1S(=O)(=O)NCCC(=O)Nc1cccc(Cl)c1	H37Rv	Lipoamide dehydrogenase	inhibition	absorbance	Mycobacterium tuberculosis	100 µM	15%
C[n+]1ccc(Nc2ccc(NC(=O)c3cc(Nc4cc[n+](C)c5ccc([N+](=O)[O-])cc45)ccc3[N+](=O)[O-])cc2)cc1		Mycolate synthetase	IC50	HPLC	Mycobacterium tuberculosis		500 µM
O=C(N/N=C/c1cc([N+](=O)[O-])cc([N+](=O)[O-])c1O)c1ccc(S(=O)(=O)NC[C@H]2O[C@@H](n3ccc(=O)[nH]c3=O)[C@H](O)[C@@H]2O)cc1		UDP-galactopyranose mutase	inhibition		Mycobacterium tuberculosis	25 µM	70%
C[C@@H]1CN(c2c(F)c(N)c3c(=O)c(C(=O)O)cn(C4CC4)c3c2F)C[C@H](C)N1	H37Rv	DNA gyrase	IC50	gel	Mycobacterium tuberculosis		2 µg/mL
Cc1cn([C@@H]2O[C@H](CO)[C@@H](N=[N+]=[N-])[C@@H]2O)c(=O)[nH]c1=O		Thymidylate kinase	Ki		Mycobacterium tuberculosis		215 µM
O=C(CON=Cc1cc([N+](=O)[O-])cc([N+](=O)[O-])c1O)NC[C@H]1O[C@@H](n2ccc(=O)[nH]c2=O)[C@H](O)[C@@H]1O		UDP-galactopyranose mutase	IC50		Mycobacterium tuberculosis		>100 µM
O=c1[nH]c(=O)n([C@H]2C[C@H](O)[C@@H](CO)O2)cc1I		Thymidine monophosphate kinase	IC50		Mycobacterium tuberculosis		33 µM

Repeating the final 9 entries:

compound | strain | protein | endpoint | method | organism | dose | value
CN1CCN(S(=O)(=O)c2cc(Br)cnc2N)CC1 | H37Rv | Lipoamide dehydrogenase | inhibition | absorbance | Mycobacterium tuberculosis | 100 µM | 10%
O=C(CCN1C(=O)/C(=C/c2ccc(OCc3ccccc3)cc2)SC1=S)NNC(=O)c1cccnc1 |  | Pantothenate synthetase | IC50 | absorbance | Mycobacterium tuberculosis |  | 0.51 µM
Nc1ncc(Br)cc1S(=O)(=O)NCCC(=O)Nc1cccc(Cl)c1 | H37Rv | Lipoamide dehydrogenase | inhibition | absorbance | Mycobacterium tuberculosis | 100 µM | 15%
C[n+]1ccc(Nc2ccc(NC(=O)c3cc(Nc4cc[n+](C)c5ccc([N+](=O)[O-])cc45)ccc3[N+](=O)[O-])cc2)cc1 |  | Mycolate synthetase | IC50 | HPLC | Mycobacterium tuberculosis |  | 500 µM
O=C(N/N=C/c1cc([N+](=O)[O-])cc([N+](=O)[O-])c1O)c1ccc(S(=O)(=O)NC[C@H]2O[C@@H](n3ccc(=O)[nH]c3=O)[C@H](O)[C@@H]2O)cc1 |  | UDP-galactopyranose mutase | inhibition |  | Mycobacterium tuberculosis | 25 µM | 70%
C[C@@H]1CN(c2c(F)c(N)c3c(=O)c(C(=O)O)cn(C4CC4)c3c2F)C[C@H](C)N1 | H37Rv | DNA gyrase | IC50 | gel | Mycobacterium tuberculosis |  | 2 µg/mL
Cc1cn([C@@H]2O[C@H](CO)[C@@H](N=[N+]=[N-])[C@@H]2O)c(=O)[nH]c1=O |  | Thymidylate kinase | Ki |  | Mycobacterium tuberculosis |  | 215 µM
O=C(CON=Cc1cc([N+](=O)[O-])cc([N+](=O)[O-])c1O)NC[C@H]1O[C@@H](n2ccc(=O)[nH]c2=O)[C@H](O)[C@@H]1O |  | UDP-galactopyranose mutase | IC50 |  | Mycobacterium tuberculosis |  | >100 µM
O=c1[nH]c(=O)n([C@H]2C[C@H](O)[C@@H](CO)O2)cc1I |  | Thymidine monophosphate kinase | IC50 |  | Mycobacterium tuberculosis |  | 33 µM